In this assay the target is purified recombinant ectodomain of H5 HA (A/Vietnam/1203/2004, Clade1) (influenza A/Vietnam/1203/2004 (H5N1), UniProt Q8QPL1 17-531). The assay is described as follows: ELISA.

B1: V4-17 (antibody, V domains shown)
VH: QLQLQESGPGLVKPSETLSLTCTVSGGSITRNSYFWGWIRQPPGKGLEWIGSMYYDGTTYHNPSLKSRLTLSADTSKNQFSVRLSSVTAADTAVYYCARHHVTELRVLEWLPKSDY
VL: QSVLTQPPSASGTPGQRVTISCSGSSSNIGTYYVHWYQHLPGTAPKLLIYDNNQRPSGVPDRFSGSKSGTSASLAISGLRSEDEADYHCAAWDDSLSGVV
For B1, the binding result is “no binding”.

(Values after patent US20170327565A1 (published 2017).)
